Here are results for 1 molecule from paper PMC8878501 (Marine Drugs, 2022).

The chains behind the UniProt entries cited, without tags or fusion partners. Where a name states a change or a piece, a line headed by the entry shows the natural chain unless it says otherwise. Residues count along the entry.
UniProt P02716, 25-520 limits assumed: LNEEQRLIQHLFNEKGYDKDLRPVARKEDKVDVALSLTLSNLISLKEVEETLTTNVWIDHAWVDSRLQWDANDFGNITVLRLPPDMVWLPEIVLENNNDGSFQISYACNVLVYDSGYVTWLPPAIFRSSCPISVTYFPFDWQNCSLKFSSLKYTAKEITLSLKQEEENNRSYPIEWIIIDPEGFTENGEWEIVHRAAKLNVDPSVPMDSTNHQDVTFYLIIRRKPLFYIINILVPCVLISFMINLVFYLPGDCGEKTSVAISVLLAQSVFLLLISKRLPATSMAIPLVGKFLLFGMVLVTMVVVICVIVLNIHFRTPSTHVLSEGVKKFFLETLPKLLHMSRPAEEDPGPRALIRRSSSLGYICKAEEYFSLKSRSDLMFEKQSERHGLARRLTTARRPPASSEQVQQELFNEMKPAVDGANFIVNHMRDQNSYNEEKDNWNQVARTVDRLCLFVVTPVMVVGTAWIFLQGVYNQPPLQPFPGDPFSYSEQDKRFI
UniProt P09690, 24-501 partner limits assumed: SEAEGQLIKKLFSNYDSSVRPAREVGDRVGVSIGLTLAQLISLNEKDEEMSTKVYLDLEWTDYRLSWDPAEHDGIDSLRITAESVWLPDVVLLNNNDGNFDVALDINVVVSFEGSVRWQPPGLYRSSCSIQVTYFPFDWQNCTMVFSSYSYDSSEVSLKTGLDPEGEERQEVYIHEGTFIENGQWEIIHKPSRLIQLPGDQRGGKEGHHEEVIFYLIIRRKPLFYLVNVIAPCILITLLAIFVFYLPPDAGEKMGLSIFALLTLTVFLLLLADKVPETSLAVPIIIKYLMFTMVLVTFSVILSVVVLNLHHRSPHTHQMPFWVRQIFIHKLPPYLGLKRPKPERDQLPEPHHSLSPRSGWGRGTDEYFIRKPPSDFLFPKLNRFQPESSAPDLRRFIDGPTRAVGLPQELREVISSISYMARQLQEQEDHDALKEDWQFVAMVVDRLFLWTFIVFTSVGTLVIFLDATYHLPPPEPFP
UniProt P20782, 21-493 limits assumed: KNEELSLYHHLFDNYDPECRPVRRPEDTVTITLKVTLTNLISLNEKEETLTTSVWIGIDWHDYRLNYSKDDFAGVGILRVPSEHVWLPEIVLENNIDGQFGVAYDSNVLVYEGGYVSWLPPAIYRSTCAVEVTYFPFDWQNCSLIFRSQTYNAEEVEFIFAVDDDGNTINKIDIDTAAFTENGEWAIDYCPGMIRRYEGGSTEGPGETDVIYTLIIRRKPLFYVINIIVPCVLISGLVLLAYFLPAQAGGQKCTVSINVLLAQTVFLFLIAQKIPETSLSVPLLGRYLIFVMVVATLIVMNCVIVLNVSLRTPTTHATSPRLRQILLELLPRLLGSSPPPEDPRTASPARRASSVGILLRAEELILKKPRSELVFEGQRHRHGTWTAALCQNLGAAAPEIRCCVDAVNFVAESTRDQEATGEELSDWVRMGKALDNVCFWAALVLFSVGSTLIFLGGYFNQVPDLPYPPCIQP

This assay addresses mα1β1δɛ nAChR (Mus musculus, UniProt P02716+P04756+P09690+P20782). The experiment in a line: Two-electrode voltage clamp, mα1β1δε nAChR in Xenopus laevis oocytes. The note with it: 10 µM ACh. A general note: Two-electrode voltage clamp holds a large cell at a set potential and records current.

As usually defined, the IC50 is the point on the concentration scale where inhibition reaches its midpoint. A low value points to greater potency. `CC[C@H](C)[C@@H]1NC(=O)[C@H](CCC(=O)O)NC(=O)[C@@H]2CCCN2C(=O)[C@H](Cc2c[nH]cn2)NC(=O)[C@H]([C@@H](C)O)NC(=O)[C@H](CCC(N)=O)NC(=O)[C@H](C)NC(=O)[C@@H]2CSSC[C@H](NC(=O)[C@H](CCC(=O)O)NC(=O)[C@@H](N)CC(=O)O)C(=O)N[C@@H](CSSC[C@@H](C(N)=O)NC1=O)C(=O)N[C@@H](CO)C(=O)N[C@@H](CC(N)=O)C(=O)N1CCC[C@H]1C(=O)N[C@@H](CO)C(=O)N2` [QuIA]: the IC50 (−70 mV, less than 50% blocking at 10 µM) is more than 10 µM. Besides, the “blocking of ACh-induced current” value (at 10 µM) is “^a Values in parentheses are a 95% confidence interval (C.I.). ^b Less than 50% blocking at 10 µM. All receptors are of rat (r) or human (h) origin, except α1β1δε, which is of mouse (m) origin. ND, not determined”.
